Anti-infective test results gathered from many reports (values: NIAID ChemDB through PubChem).

All rows: tests in culture; organism: HIV-1; read by: RT activity; endpoint: inhibition

Inhibition is in % at the dose shown (toxicity tests: loss of growth or viability).

| SMILES | changes | cells | conditions | tested at | strain or isolate | value |
|---|---|---|---|---|---|---|
| O=C(C(=O)N1CCN(C(=O)c2ccccc2)CC1)c1c[nH]c2cccc(F)c12 |  | MT-2 |  | 10 µM | BRU | >98% |
| CC(=O)N[C@H]1CSSC[C@@H](C(=O)N[C@@H](Cc2ccc(O)cc2)C(=O)O)NC(=O)[C@H](CCCCN)NC(=O)[C@H](CC(N)=O)NC1=O |  | MT-4 | 6 d | 2.5 µM | NL4-3 | 31% |
| Nc1ncnc2c1ncn2COCCOP(=O)(O)O |  | SupT1 + Sup-T1 |  | 300 µM |  | 45% |
| Nc1ccn([C@H]2CC[C@@H](CO)O2)c(=O)n1 |  | Macrophage + Macrophages |  | 1 µM | LAI | 82.7% |
| CC(=O)Oc1cc2[nH]cc(C(=O)C(=O)N3CCN(C(=O)c4ccccc4)CC3)c2cc1OC(C)=O |  | MT-2 |  | 10 µM | BRU | 34% |
| Cc1cn([C@H]2C[C@H](N=[N+]=[N-])[C@@H](COP(=O)(O)OCCO[C@H]3O[C@H](CO)[C@@H](O)[C@H](O)[C@@H]3O)O2)c(=O)[nH]c1=O |  | CEM | 7 d | 25 µM | LAV-Bru | 94% |
| COC(=O)CC(c1ccc(OC)c(OC)c1)N1C(=O)c2ccc(N)cc2C1=O |  | Macrophage |  | 50 µg/mL | JR-FL | 81% |
| COCCNC(=O)[C@@H](NC(=O)[C@H](Cc1ccc(OC)c(OC)c1OC)C[C@H](O)[C@H](Cc1ccccc1)NC(=O)OC(C)(C)C)C(C)C |  | MT-2 |  | 0.03 µM | MN | 90% |
| O=C(C(=O)N1CCN(C(=O)c2ccc(F)cc2F)CC1)c1c[nH]c2ccccc12 |  | MT-2 |  | 10 µM | BRU | 28.5% |
| CCN(CC)C(=O)OCC1CN(C(=O)c2ccccc2)CCN1C(=O)c1ccccc1 |  | MDM |  | 100 µM | BaL | 43% |
| Cc1cccc2c(C(=O)C(=O)N3CCN(C(=O)c4ccccc4)CC3)c[nH]c12 |  | MT-2 |  | 10 µM |  | >98% |
| O=P(O)(O)OP(=O)(O)OP(=O)(O)OP(=O)(O)OP(=O)(O)OP(=O)(O)OP(=O)(O)OP(=O)(O)OP(=O)(O)OP(=O)(O)OP(=O)(O)OP(=O)(O)OP(=O)(O)OP(=O)(O)OP(=O)(O)O |  | H9 |  | 100 µg/mL | IIIB | 38% |
| CCN(CC)CCCC(C)Nc1ccnc2cc(Cl)ccc12 |  | H9 |  | 100 µM |  | 71.05% |
| CCN(CC)C(=O)OCC1CN(C(C#N)(c2ccccc2)c2ccccc2)CCN1C(=O)c1cc(OC)c(OC)c(OC)c1 |  | MDM |  | 10 µM | BaL | 44% |
| Nc1ncnc2c1ncn2[C@@H]1O[C@H](COP(=O)(O)O[C@@H]2[C@H](O)[C@@H](COP(=O)(O)O[C@@H]3[C@H](O)[C@@H](CO)O[C@H]3n3cnc4c(N)ncnc43)O[C@H]2n2cnc3c(N)ncnc32)[C@@H](O)[C@H]1O |  | SupT1 + Sup-T1 |  | 300 µM |  | 10% |
| CCN(CC)C(=O)OCC1CN(C(=O)c2cc(OC)c(O)c(OC)c2)CCN1C(=O)c1cc(OC)c(OC)c(OC)c1 |  | MDM |  | 100 µM | BaL | 66% |
| Cc1cn([C@H]2C[C@H](N=[N+]=[N-])[C@@H](CO)O2)c(=O)[nH]c1=O |  | PBMC |  | 0.045 µM | Ba-L (R5-tropic) | 90% |
| CCN(CC)C(=O)OCC1CN(C(=S)c2cc(OC)c(OC)c(OC)c2)CCN1C(=S)c1cc(OC)c(OC)c(OC)c1 |  | MDM |  | 10 µM | BaL | 76% |
| C[C@@H](O)[C@H](NC(=O)[C@@H](N)CC(N)=O)C(=O)N[C@@H](CO)C(=O)N[C@@H](Cc1ccc(O)cc1)C(=O)NCC(=O)O |  | A3.01 |  | 0.001 µM | LAV | 82.6% |
| CC1(C)[C@@H](O[C@H]2O[C@H](C(=O)O)[C@@H](O)[C@H](O)[C@H]2O[C@@H]2O[C@H](C(=O)O)[C@@H](O)[C@H](O)[C@H]2O)CC[C@]2(C)[C@H]3C(=O)C=C4[C@@H]5C[C@@](C)(C(=O)O)CC[C@]5(C)CC[C@@]4(C)[C@]3(C)CC[C@@H]12 |  | MOLT-4 | 3 d | 1200 µM | IIIB | 0% |
| Cc1ccc(C(=O)N2CCN(C(=O)C(=O)c3c[nH]c4ccccc34)CC2)cc1 |  | MT-2 |  | 10 µM | BRU | 61.8% |
| Nc1ccn([C@H]2CC[C@@H](CO)O2)c(=O)n1 |  | MT-2 |  | 0.1 µM | LAV | 95% |
| CCCCCCCCCCCCCCO |  | H9 |  | 10 µg/mL | IIIB | 49% |
| CC(=O)Oc1ccc(C(=O)N2CCN(C(=O)C(=O)c3c[nH]c4ccccc34)CC2)cc1 |  | MT-2 |  | 10 µM | BRU | 91.5% |
| CCCCCCCCCCCCCCCCOP(=O)(OCCO[C@@H]1O[C@H](CO)[C@@H](O)[C@H](O)[C@@H]1O)OC[C@H]1O[C@@H](n2cc(C)c(=O)[nH]c2=O)C[C@@H]1N=[N+]=[N-] |  | U-937 | 14 d | 1 µM | LAV-Bru | 0% |
| CC(=O)N[C@@H](Cc1ccc(O)cc1)C(=O)N[C@H]1CSSC[C@@H](C(=O)O)NC(=O)[C@H](CCCCN)NC(=O)[C@H](CCCCN)NC1=O |  | MT-4 | 6 d | 2.5 µM | NL4-3 | 28% |
| C[C@@H](O)[C@H](N)C(=O)N[C@H](C(=O)N[C@@H](CO)C(=O)N[C@@H](Cc1ccc(O)cc1)C(=O)N[C@H](C(=O)O)[C@@H](C)O)[C@@H](C)O |  | A3.01 |  | 0.001 µM | LAV | 72.9% |
| CCN(CC)C(=S)S |  | PBL |  | 0.00000075 µg/mL | LAV | 67% |
| COc1c(C)c2c(c(O)c1C/C=C(\C)CCC(=O)O)C(=O)OC2 |  | HUT78/HIV-1(SF162) + HUT 78 | chronic infection | 10 µM | SF162 | 0% |
| CC(C)(C)NC(=O)[C@@H]1CCCN1C(=O)[C@@H](O)[C@H](Cc1ccccc1)NC(=O)[C@H](CC(N)=O)NC(=O)OCc1ccccc1 | PR-I84V | MOLT-4 |  | 20 µM | pNL432(PR-I84V) | 41% |
| Nc1ccn([C@@H]2O[C@H](CO)C=C2F)c(=O)n1 |  | PBMC |  | 8 µM | BRU | 90% |
| CCN(CC)C(=O)OCC1CN(C(=S)c2cc(OC)c(OC)c(OC)c2)CCN1C(=O)c1cc(OC)c(OC)c(OC)c1 |  | MDM |  | 10 µM | BaL | 41% |
| O=C1CCC(N2C(=O)c3ccccc3C2=O)C(=O)N1 |  | Macrophage |  | 50 µg/mL | JR-FL | 36% |
| CC(C)[C@H](NC(=O)[C@H](Cc1ccccc1)C[C@H](O)[C@H](Cc1ccccc1)NC(=O)OC(C)(C)C)C(=O)N[C@@H](Cc1ccccc1)C(=O)N1CCOCC1 |  | PBL |  | 0.1 µM | AMS316-23 | 99.5% |
| O=C(C(=O)N1CCN(C(=O)c2ccc(O)cc2)CC1)c1c[nH]c2ccccc12 |  | MT-2 |  | 10 µM | BRU | 87.7% |
| CCCCCCCCCCCCCCCCOP(=O)(OC[C@H]1OC(O)[C@@H](O)[C@@H](O)[C@@H]1O)OC[C@H]1O[C@@H](n2cc(C)c(=O)[nH]c2=O)C[C@@H]1N=[N+]=[N-] |  | PBL | 7 d | 25 µM | LAV-Bru | 93% |
| Nc1ncnc2c1ncn2COCCOP(=O)([O-])O[C@@H]1C[C@@H](COP(=O)([O-])O[C@@H]2C[C@@H](COP(=O)([O-])O[C@@H]3C[C@@H](CO)O[C@H]3n3cnc4c(N)[n+](Cc5ccccc5)cnc43)O[C@H]2n2cnc3c(N)ncnc32)O[C@H]1n1cnc2c(N)ncnc21 |  | SupT1 + Sup-T1 |  | 100 µM |  | 67% |

Conditions beyond the fields shown may differ between rows. An empty or dashed field is not shown.